# Measured values from article PMC11345844, “Non-Covalent Inhibitors of SARS-CoV-2 Papain-Like Protease (PLpro): In Vitro and In Vivo Antiviral Activity” (Journal of Medicinal Chemistry, 2024).
# Test system: SARS-CoV-2 Omicron BA.1
# Experiment: microbe, parasite or virus in culture
# Settings: Severe acute respiratory syndrome coronavirus 2, 48 h, read-out: EC50 (antiviral activity toward BA.1)
smiles,measurement,value
Cc1ccc(NC2CNC2)cc1C(=O)N[C@H](C)c1cccc(-c2ccc(CNC3CCCC3)s2)c1 [Compound 10],EC50,2500 ± 150 nM
